Source: PubChem BioAssay AID504761 (Drosophila RNAi Screening Center, 2011)

Purpose: 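Fly genes whose silencing reduces dengue virus type 2 infection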 (primary screen)
Cell system: D.Mel-2 cells from Drosophila
Reagents: long dsRNA against Drosophila genes
Conditions: infection with dengue virus type 2; dose and infection time not stated
Detection: 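Cells stained for dengue envelope protein and imaged; percent of infected cells per well on duplicate plates, ranked by infection, with stained nuclei counted for cell number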
Direction: infection score: higher = more virus-infected cells; cell count: higher = more cells in the well
Call rule: 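Low infection ranks in the two replicates (chance level up to 0.065) followed by a retest with a 1.5-fold or larger significant decrease, p below 0.05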
Calls: active = confirmed: knock-down lowers infection; inactive = not picked or not confirmed
In all, the deposit lists about 22,000 reagents; below is a random part of those with a known target gene and a result. Over the whole deposit, 116 (0.52%) are marked active. 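Calls depend on retest data that are not deposited; infection was ranked per plate without normalising between plates; the unit of the infection score is not given.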 Raw values are not corrected between plates. Reagents against one gene are numbered here. Further read-outs or replicates are left out here. Not given: the amount of reagent, the time to read-out.

Target gene | dsRNA no. | infection score, replicate 1 | infection score, replicate 2 | cell count, replicate 1 | Outcome
link | 1 | 4.57 | 7.14 | 6036 | inactive
link | 2 | 3.5 | 3.3 | 7010 | inactive
Las | 1 | 6.4 | 31.3 | 844 | inactive
Las | 2 | 10.7 | 13.6 | 6137 | inactive
cora | 1 | 2.7 | 1.27 | 6142 | inactive
cora | 2 | 18.2 | 9.79 | 5963 | inactive
Nep2 | 1 | 6.12 | 12.6 | 6770 | inactive
Nep2 | 2 | 3.38 | 1.41 | 6219 | inactive
sol | 1 | 7.56 | 1.2 | 5844 | inactive
sol | 2 | 11.7 | 6.55 | 4874 | inactive
Or67a | 1 | 2.89 | 2.64 | 6086 | inactive
BomS1 | 1 | 4.61 | 1.82 | 6960 | inactive
stc | 1 | 26.7 | 8.5 | 5736 | inactive
CG13144 | 1 | 1.53 | 3.32 | 6260 | inactive
CG2906 | 1 | 17.6 | 8.13 | 5533 | inactive
Pdha | 1 | 13.2 | 4.59 | 5455 | inactive
Pdha | 2 | 2.28 | 24.1 | 6581 | inactive
nis | 1 | 2.23 | 4.63 | 6289 | inactive
TTLL1B | 1 | 2.55 | 4.45 | 6088 | inactive
Ufd4 | 1 | 3.01 | 1.85 | 6440 | inactive
tos | 1 | 32.7 | 16.2 | 5796 | inactive
CAH1 | 1 | – | – | 349 | inactive
CG16721 | 1 | 3.18 | 2.84 | 6386 | inactive

2 neighbouring reagents from above, quoted:
Target gene | dsRNA no. | infection score, replicate 1 | infection score, replicate 2 | cell count, replicate 1 | Outcome
sol | 1 | 7.56 | 1.2 | 5844 | inactive
sol | 2 | 11.7 | 6.55 | 4874 | inactive
